B1: genetically fused VHHkappa-SD36: VHHkappa N-terminally linked to SD36 by (GGGGS)3 linker, SEQ ID NO: 5 (protein)
chain: QVQLVESGGGWVQPGGSLRLSCAASGFTFSDTAMMWVRQAPGKGREWVAAIDTGGGYTYYADSVKGRFTISRDNAKNTLYLQMNSLKPEDTARYYCAKTYSGNYYSNYTVANYGTTGRGTLVTVSSAAAGGGGSGGGGSGGGGSEVQLVESGGGLVQAGGSLKLSCAASGRTYAMGWFRQAPGKEREFVAHINALGTRTYYSDSVKGRFTISRDNAKNTEYLEMNNLKPEDTAVYYCTAQGQWRAAPVAVAAEYEFWGQGTQVTVSSGGLPETGGHHHHHH
B2: VHHkappa-SD36 conjugated through click chemistry: SD36-azide conjugated to VHHkappa-DBCO through copper-free click reaction (protein)
VHH 1: QVQLVESGGGWVQPGGSLRLSCAASGFTFSDTAMMWVRQAPGKGREWVAAIDTGGGYTYYADSVKGRFTISRDNAKNTLYLQMNSLKPEDTARYYCAKTYSGNYYSNYTVANYGTTGRGTLVTVSSGG
VHH 2: EVQLVESGGGLVQAGGSLKLSCAASGRTYAMGWFRQAPGKEREFVAHINALGTRTYYSDSVKGRFTISRDNAKNTEYLEMNNLKPEDTAVYYCTAQGQWRAAPVAVAAEYEFWGQGTQVTVSSGG

Test system: influenza virus A/Puerto Rico/8/1934 (H1N1)
Conditions: single intraperitoneal dose on day of infection; for protection from a lethal dose of influenza A virus: 2 mg/kg; for body weight change: 10 mg/kg

| Molecule | protection from a lethal dose of influenza A virus | body weight change |
| --- | --- | --- |
| B1 | fully protected | no weight loss |
| B2 | fully protected | no weight loss |
